Structures can show the parent of a compound that is named as a salt.

Experimental findings from US10112911B2, “Substituted cyanoguanidines as oral anti-virals” (Abbvie Inc, priority 2012, dated 2018) are described below.

This series has as its system RSV (Group A, Long Strain). Nature of the series: Cytopathetic effect (CPE) protection antiviral assay, MTT readout. In kind it is cell-based, respiratory syncytial virus (RSV). As to conditions: therapeutic window, ratio of MTT TD50 to RSV EC50 in HEp-2 cells. The protocol:
HEp-2 cells and RSV (Group A, Long Strain) were obtained from the American Type Culture Collection (Manassas, Va.).
A cytopathetic effect (CPE) protection assay was performed to determine the ability of a compound to protect the cells from viral infection and thus the CPE induced by viral infection. 96-Well plates were first seeded with […] per well in Dulbecco's modified Eagle's medium (DMEM) containing 10% fetal bovine serum (FBS). One day after the cells were seeded, they were preincubated with serial dilutions of compounds prepared in 100 μL assay medium (DMEM mixed with F12 medium at a 1:1 ratio, supplemented with 2% FBS and 1 mM sodium pyruvate) for 1 hour at 37° C. 100 μL of assay medium containing 0.2 multiplicity of infection (MOI) of RSV was then added to each well of cells. In addition to wells containing infected cells incubated with compounds, each plate also contained replicates of two kinds of controls: (1) Virus control contained cells infected with 0.2 MOI of RSV in assay medium, (2) Uninfected cell control contained cells incubated with assay medium only. After 4 days of incubation at 37° C., the viability of cells was assessed using MTT (Thiazolyl blue tetrazolium bromide, Sigma). A stock solution of MTT, at a concentration of 4 mg/mL in phosphate-buffered saline, was added to all wells at 25 μL per well. Plates were further incubated for 4 hours, and each well was then treated with 50 μL of a solution containing 20% sodium dodecyl sulfate (SDS) and 0.02 N HCl. After an overnight incubation, the plates were measured on a BioTek® microtiter plate reader at wavelengths of 570 nm and 650 nm. The MTT detection is based on the fact that viable (uninfected) cells can reduce the tetrazolium salts into colored formazan products, which can then be quantitated by spectrometry. Based on the spectrometric absorbance of each sample, the percent of protection from CPE, which is an indicator of protection from viral infection, can be calculated for each compound and the 50% effective concentrations (EC50) can be calculated using a nonlinear regression curve fitting equation provided by the GraphPad Prism® 4 software.
Compounds were tested to determine both their antiviral and toxicity to determine their therapeutic window. Determination of the EC50 and TD50 of these active compounds were repeated one additional time to confirm the window.
As to `Cc1ccccc1NC(=NC#N)N1CCN(c2nccnc2C#N)CC1C(C)C` (stereo not shown) [Example 1.1, N′-cyano-4-(3-cyanopyrazin-2-yl)-2-isopropyl-N-(2-methylphenyl)piperazine-1-carboximidamide], the “Window (TD50/EC50)” value is >112.
As for `COC(=O)c1cnc(N2CCN(C(=NC#N)Nc3ccccc3Cl)C(C(C)C)C2)cn1` (stereo not shown) [Example 1.2, methyl 5-{4-[N-(2-chlorophenyl)-N′-cyanocarbamimidoyl]-3-isopropylpiperazin-1-yl}pyrazine-2-carboxylate], the figure is >88; as for `Cc1ccccc1N/C(=N/C#N)N1CCN(c2cnc3ccccc3n2)CC1C(C)C` (stereo not shown) [Example 1.3, N′-cyano-2-isopropyl-N-(2-methylphenyl)-4-(quinoxalin-2-yl)piperazine-1-carboximidamide trifluoroacetate], >128.
As for `Cc1ccccc1NC(=NC#N)N1CCN(c2nc3ccccc3o2)CC1C(C)C` (stereo not shown) [Example 1.4, 4-(1,3-benzoxazol-2-yl)-N′-cyano-2-isopropyl-N-(2-methylphenyl)piperazine-1-carboximidamide], the figure is 25; as for `Cc1ccccc1NC(=NC#N)N1CCN(c2nc3cccc(Cl)c3o2)CC1C(C)C` (stereo not shown) [Example 1.5, 4-(7-chloro-1,3-benzoxazol-2-yl)-N′-cyano-2-isopropyl-N-(2-methylphenyl)piperazine-1-carboximidamide], >12.3; as for `Cc1ccccc1NC(=NC#N)N1CCN(c2nc3ccccc3s2)CC1C(C)C` (stereo not shown) [Example 1.6, 4-(1,3-benzothiazol-2-yl)-N′-cyano-2-isopropyl-N-(2-methylphenyl)piperazine-1-carboximidamide], >5.3.
Consider `Cc1ccc2oc(N3CCN(C(=NC#N)Nc4ccccc4C)C(C(C)C)C3)nc2c1` (stereo not shown) [Example 1.7, N′-cyano-2-isopropyl-4-(5-methyl-1,3-benzoxazol-2-yl)-N-(2-methylphenyl)piperazine-1-carboximidamide], for which the “Window (TD50/EC50)” value is recorded as >12.
Turning to `Cc1ccccc1NC(=NC#N)N1CCN(c2ncnc3ccccc23)CC1C(C)C` (stereo not shown) [Example 1.8, N′-cyano-2-isopropyl-N-(2-methylphenyl)-4-(quinazolin-4-yl)piperazine-1-carboximidamide], the “Window (TD50/EC50)” value is >333.
As for `Cc1ccccc1NC(=NC#N)N1CCN(c2nc3ccccc3[nH]2)CC1C(C)C` (stereo not shown) [Example 1.9, 4-(1H-benzimidazol-2-yl)-N′-cyano-2-isopropyl-N-(2-methylphenyl)piperazine-1-carboximidamide], the figure is >24; as for `Cc1ccccc1NC(=NC#N)N1CCN(c2nc3ccccc3c(=O)[nH]2)CC1C(C)C` (stereo not shown) [Example 1.10, N′-cyano-2-isopropyl-N-(2-methylphenyl)-4-(4-oxo-3,4-dihydroquinazolin-2-yl)piperazine-1-carboximidamide], >233.
As for `Cc1ccccc1NC(=NC#N)N1CCN(c2ncnc3[nH]ccc23)CC1C(C)C` (stereo not shown) [Example 1.11, N′-cyano-2-isopropyl-N-(2-methylphenyl)-4-(7H-pyrrolo[2,3-d]pyrimidin-4-yl)piperazine-1-carboximidamide], the figure is >52.
The figure for `CCC1CN(c2cnc3ccccc3n2)CCN1/C(=N\C#N)Nc1ccccc1C` (stereo not shown) [Example 1.44, N′-cyano-2-ethyl-N-(2-methylphenyl)-4-(quinoxalin-2-yl)piperazine-1-carboximidamide] is 351; for `Cc1ccccc1N/C(=N/C#N)N1CCN(c2cnc3cc(F)ccc3n2)CC1C(C)C` (stereo not shown) [Example 1.54, N′-cyano-4-(6-fluoroquinoxalin-2-yl)-2-isopropyl-N-(2-methylphenyl)piperazine-1-carboximidamide] it is >113.
